# Measured values taken from article PMC4668384 (Scientific Reports, 2015).
# System: V. virens pB-Vv51wt transformants (P-F)
# Test: Tebuconazole sensitivity, mycelial growth on amended PSA, pB-Vv51wt transformants
# Type: cell-based, Villosiclava virens
smiles,measurement,setting,value
CC(C)(C)C(O)(CCc1ccc(Cl)cc1)Cn1cncn1 (centres unmarked) [tebuconazole],Resistance factor,EC50 of P-F 4 divided by EC50 of parental isolate FJ4-1b,2.67
same,Resistance factor,EC50 of P-F 7 divided by EC50 of parental isolate FJ4-1b,5.79
same,Resistance factor,EC50 of P-F 8 divided by EC50 of parental isolate FJ4-1b,3.10
same,Resistance factor,EC50 of P-F 9 divided by EC50 of parental isolate FJ4-1b,3.67
same,Resistance factor,EC50 of P-F 10 divided by EC50 of parental isolate FJ4-1b,2.90
same,Resistance factor,EC50 of P-F 13 divided by EC50 of parental isolate FJ4-1b,2.69
same,Resistance factor,EC50 of P-F 14 divided by EC50 of parental isolate FJ4-1b,6.64
same,Resistance factor,EC50 of P-F 15 divided by EC50 of parental isolate FJ4-1b,3.02
same,Resistance factor,EC50 of P-F 16 divided by EC50 of parental isolate FJ4-1b,3.17
same,Resistance factor,EC50 of P-F 17 divided by EC50 of parental isolate FJ4-1b,4.71
same,Resistance factor,EC50 of P-F 20 divided by EC50 of parental isolate FJ4-1b,6.50
same,Resistance factor,EC50 of P-F 22 divided by EC50 of parental isolate FJ4-1b,3.52
same,Resistance factor,EC50 of P-F 23 divided by EC50 of parental isolate FJ4-1b,4.76
same,Resistance factor,EC50 of P-F 25 divided by EC50 of parental isolate FJ4-1b,3.64
same,Resistance factor,EC50 of P-F 26 divided by EC50 of parental isolate FJ4-1b,4.26
same,Resistance factor,EC50 of P-F 28 divided by EC50 of parental isolate FJ4-1b,3.05
same,Resistance factor,EC50 of P-F 29 divided by EC50 of parental isolate FJ4-1b,6.07
same,Resistance factor,EC50 of P-F 31 divided by EC50 of parental isolate FJ4-1b,5.83
same,Resistance factor,EC50 of P-F 32 divided by EC50 of parental isolate FJ4-1b,7.71
same,Resistance factor,EC50 of P-F 33 divided by EC50 of parental isolate FJ4-1b,2.74
same,Resistance factor,EC50 of P-F 34 divided by EC50 of parental isolate FJ4-1b,3.55
same,Resistance factor,EC50 of P-F 36 divided by EC50 of parental isolate FJ4-1b,5.33
same,Resistance factor,EC50 of P-F 37 divided by EC50 of parental isolate FJ4-1b,2.52
same,Resistance factor,EC50 of P-F 38 divided by EC50 of parental isolate FJ4-1b,7.29
same,Resistance factor,EC50 of P-F 39 divided by EC50 of parental isolate FJ4-1b,2.98
same,Resistance factor,EC50 of P-F 40 divided by EC50 of parental isolate FJ4-1b,4.90
